From publication PMC5223167

Target: T1, PPE2 (nuclear extract) (UniProt P9WI47)
T1 sequence (looked up, limits assumed): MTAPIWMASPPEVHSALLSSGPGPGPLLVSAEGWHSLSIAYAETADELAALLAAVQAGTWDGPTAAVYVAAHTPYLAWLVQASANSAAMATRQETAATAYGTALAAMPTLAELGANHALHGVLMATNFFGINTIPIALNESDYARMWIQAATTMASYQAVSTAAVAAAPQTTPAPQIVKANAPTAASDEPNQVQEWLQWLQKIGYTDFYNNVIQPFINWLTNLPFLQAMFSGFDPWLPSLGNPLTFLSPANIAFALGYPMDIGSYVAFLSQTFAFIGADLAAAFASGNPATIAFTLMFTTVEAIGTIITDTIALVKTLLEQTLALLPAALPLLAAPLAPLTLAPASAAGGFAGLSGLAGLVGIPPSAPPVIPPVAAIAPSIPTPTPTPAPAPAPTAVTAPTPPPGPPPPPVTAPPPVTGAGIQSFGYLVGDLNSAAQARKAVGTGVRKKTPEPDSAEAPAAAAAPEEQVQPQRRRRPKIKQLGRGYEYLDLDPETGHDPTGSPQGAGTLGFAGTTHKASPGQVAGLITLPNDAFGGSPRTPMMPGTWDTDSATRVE
Test: EMSA supershift
Settings: anti-PPE2 antibody, 20 mM HEPES (pH not stated), 0.5 mM DTT, 0.5 mM EDTA, 5% glycerol, room temperature, 30 min, protein in an extract, label: 32P 5' end

GGGGTATAAATACCTGATGGCTGCTGCCAG (double strand) [inos proximal GATA-1 element (overlaps TATA box)]
binding result: binds

For at least one entry, the source does not settle the construct or the ends of the probe. Results from cells or extracts need not show a direct contact. Tags and fusion partners may be left off the protein sequences shown.
